A mixed list of measured activities; the numbers were collected in NIAID ChemDB.

All rows: tests in culture; organism: Candida albicans

Conditions beyond the fields shown may differ between rows. An empty or dashed field is not shown. MIC50, MIC90 and the like: level of inhibition, or share of isolates inhibited.

SMILES,read-out,strain,method,result
COc1cc(C(=O)Nc2ccccc2Cn2ccnc2)cc(OC)c1OC,Mean MIC,27 strains,,71.9 µg/mL
CCOc1ccc2nc3cc(N=C4NC(=O)/C(=C\C=C\c5ccc([N+](=O)[O-])o5)S4)ccc3c(N)c2c1,MIC,ATCC 60193,broth dilution,500 µg/mL
COc1ccc(-c2cc(-c3cc(OC)c(OC)c(OC)c3)nc(NN)n2)cc1OC,MIC,DSM 70014,,50 µg/mL
CN1C(=O)CSc2cc(C(O)Cn3cncn3)ccc21,MIC,CA6,,>250 µg/mL
O=C(Nc1ccc(Cn2ccnc2)cc1)c1ccc(Cl)cc1[N+](=O)[O-],Mean MIC,27 strains,,158 µg/mL
O=C1C(=O)c2ccccc2C(O)=C1Nc1cccc(C(=O)O)c1,MIC,,,100 µg/mL
Clc1ccc(CO/N=C2\c3ccccc3OCC2n2cncn2)c(Cl)c1,MIC,ATCC 10231,,64 µg/mL
C[C@H]1[C@H](O)[C@@H](C)/C=C/C=C/C=C/C=C/C=C/C=C/C=C/[C@H](O[C@@H]2O[C@H](C)[C@@H](O)[C@H](N)[C@@H]2O)C[C@@H]2O[C@](O)(C[C@@H](O)C[C@@H](O)CC[C@H](O)[C@@H](O)C[C@@H](O)CC(=O)O[C@H]1C)C[C@H](O)[C@H]2C(=O)O,MIC,n. 1s,broth dilution,2 µM
CCC(C)CC(C)CCCCCCCCC(=O)N[C@H]1C[C@@H](O)[C@H](NCCN)NC(=O)[C@@H]2[C@@H](O)CCN2C(=O)[C@H]([C@H](O)CCN)NC(=O)[C@H]([C@H](O)[C@@H](O)c2ccc(O)cc2)NC(=O)[C@@H]2C[C@@H](O)CN2C(=O)[C@H]([C@@H](C)O)NC1=O,MIC50,15 strains,,0.25 µg/mL
CC(N(C)C)C(O)(Cn1cncn1)c1ccc(F)cc1F,MIC,KC-03,,0.2 µg/mL
O=C1C(Br)=C(NBr)C(=O)c2ccccc21,MIC,,,25 µg/mL
Cc1c(S(=O)(=O)c2ccccc2)[n+](=O)c2ccccc2n1[O-],MIC,Clinical isolate 13,,15.6 µg/mL
COc1ccc(C2=CC(c3cc(OC)c(OC)c(OC)c3)N3C(=O)CSC3=N2)cc1OC,MBC,DSM 70014,,22 µg/mL
Cc1c(O)cccc1C(=O)N[C@@H](CSc1ccccc1)[C@H](O)CN1C[C@H]2CCCC[C@H]2C[C@H]1C(=O)NC(C)(C)C,MIC,I44B,,>64 µg/mL
O=C1C(Cl)=C(NCl)C(=O)c2ccccc21,MIC,,,50 µg/mL
C[C@H]1[C@H](O)[C@@H](C)/C=C/C=C/C=C/C=C/C=C/C=C/C=C/[C@H](O[C@@H]2O[C@H](C)[C@@H](O)[C@H](N)[C@@H]2O)C[C@@H]2O[C@](O)(C[C@@H](O)C[C@@H](O)CC[C@H](O)[C@@H](O)C[C@@H](O)CC(=O)O[C@H]1C)C[C@H](O)[C@H]2C(=O)O,MFC,ATCC 10231,,10 µg/mL
Cc1ccc(/C=N/Nc2ccnc3cc(Cl)ccc23)cc1,MIC,,,100 µg/mL
C[C@H]1[C@H](O)[C@@H](C)/C=C/C=C/C=C/C=C/C=C/C=C/C=C/[C@H](O[C@@H]2O[C@H](C)[C@@H](O)[C@H](N)[C@@H]2O)C[C@@H]2O[C@](O)(C[C@@H](O)C[C@@H](O)CC[C@H](O)[C@@H](O)C[C@@H](O)CC(=O)O[C@H]1C)C[C@H](O)[C@H]2C(=O)O,MIC,Isolate 5,,0.25 µg/mL
O=C1C(Cl)=C(Nc2ccc(S(=O)(=O)O)cc2)C(=O)c2ccccc21,MIC,,,100 µg/mL
CCC(C)n1ncn(-c2ccc(N3CCN(c4ccc(OC[C@@H]5CO[C@@](Cn6cncn6)(c6ccc(F)cc6F)O5)cc4)CC3)cc2)c1=O,MIC50,52 strains,,0.06 µg/mL
Cc1c(Sc2ccccc2)[n+](=O)c2cc(C(F)(F)F)ccc2n1[O-],MIC,Clinical isolate 19,,7.8 µg/mL
CCOC(=O)c1c(-c2ccccc2)c2cc(Cl)ccc2oc1=O,MIC90,ATCC 90028,broth dilution / absorbance,>100 µg/mL
O=C1C(Sc2ccc(F)cc2F)=C(Sc2ccc(F)cc2F)C(=O)c2ncccc21,MIC,ATCC 10231,,6.3 µg/mL
CN1C(=O)CSc2cc(C(O)Cn3ccnc3)ccc21,MIC,CA6,,>250 µg/mL
Clc1ccccc1C(c1ccccc1)(c1ccccc1)n1ccnc1,MIC,ATCC 10231,,5 µg/mL
O=[N+]([O-])c1cccc(CNc2cccc(Cn3ccnc3)c2)c1,Mean MIC,27 strains,,112.5 µg/mL
N#Cc1ccc(/C=N/Nc2ccnc3cc(Cl)ccc23)cc1,MFC,,,>200 µg/mL
Clc1ccc(CO/N=C2/c3ccc(Cl)cc3OCC2n2cncn2)cc1,MFC,ATCC 10231,,>64 µg/mL
O=Nc1c(-c2ccc(Cl)cc2)nc2ncccn12,MIC,,,2 µg/mL
Clc1cccc(Cl)c1CO/N=C1/c2ccccc2OCC1n1cncn1,MIC,ATCC 10231,,>64 µg/mL
Cc1c(Cl)[n+](=O)c2cc(Cl)ccc2n1[O-],MIC,Clinical isolate 23,,15.6 µg/mL
CC(C)C1=CC2CC3(C=O)C4CC[C@@H](C)C4CC2(CCOC(=O)c2ccc(S(N)(=O)=O)cc2)C13C(=O)O,MIC,,,128 µg/mL
O=C1C(Cl)=C(Nc2ccc(O)cc2)C(=O)c2ccccc21,MIC,,,50 µg/mL
O=C(Nc1ccc(Cn2ccnc2)cc1)c1ccc([N+](=O)[O-])cc1,Mean MIC,27 strains,,160 µg/mL
COc1ccc(C2=CC(c3cc(OC)c(OC)c(OC)c3)NC(=S)N2)cc1OC,MIC,DSM 70014,,50 µg/mL
Fc1cccc(/C=N/Nc2ccnc3cc(Cl)ccc23)c1,MFC,,,>200 µg/mL
CN1CCN(C2=C(Cl)C(=O)c3ccccc3C2=O)CC1,MIC,,,25 µg/mL
CCc1ccc(SC2=C(Sc3ccc(CC)cc3)C(=O)c3ncccc3C2=O)cc1,MIC,ATCC 10231,,6.3 µg/mL
COc1ccc(NC(=O)CSC2NC(c3ccc(OC)c(OC)c3)=CC(c3cc(OC)c(OC)c(OC)c3)N2)cc1,MIC,DSM 70014,,100 µg/mL
CN1C(=O)CSc2cc(C(Cn3cncn3)OCc3ccc(Cl)cc3Cl)ccc21,MIC,CA6,,>250 µg/mL
CC(C)C1=CC2CC3(C=O)[C@@H]4CC[C@@H](C)[C@H]4CC2(C(O)CCc2ccccc2)[C@]13C(=O)O,MIC,,,16 µg/mL
NC(N)=NS(=O)(=O)c1ccc(NC2=C(Cl)C(=O)c3ccccc3C2=O)cc1,MIC,,,50 µg/mL
COc1ccc(SC2=C(Sc3ccc(OC)cc3)C(=O)c3ncccc3C2=O)cc1,MIC,ATCC 10231,,6.3 µg/mL
O=C(Nc1cccc(Cn2ccnc2)c1)c1ccc(Cl)cc1Cl,Mean MIC,27 strains,,119 µg/mL
Nc1[nH]c(=O)ncc1F,MIC50,126 strains,,0.25 µg/mL
CC(CCC(=O)NCCC[N+](C)(C)CCCS(=O)(=O)[O-])C1CCC2C3C(C[C@H](O)C12C)C1(C)CC[C@@H](O)C[C@H]1C[C@H]3O,MIC,ATCC 14053,,>500 µg/mL
CCC(C)n1ncn(-c2ccc(N3CCN(c4ccc(OC[C@H]5CO[C@](Cn6cncn6)(c6ccc(Cl)cc6Cl)O5)cc4)CC3)cc2)c1=O,MIC,ATCC 10231,,5 µg/mL
CN1C(=O)CSc2cc(C(Cn3cncn3)OCc3ccc(Cl)cc3)ccc21,MIC,CA6,,>250 µg/mL
O=C(Nc1ccccc1Cn1ccnc1)c1cccc([N+](=O)[O-])c1,Mean MIC,27 strains,,87.52 µg/mL
COc1ccc(C2=CC(c3cc(OC)c(OC)c(OC)c3)NC(=O)N2)cc1OC,MBC,DSM 70014,,25 µg/mL
O=c1cc(-c2ccccc2)c2cc(Cl)ccc2o1,MIC90,ATCC 90028,broth dilution / absorbance,>100 µg/mL
COc1cc(/C=C/C(=O)c2ccc3c(c2)OCO3)cc(OC)c1OC,MBC,DSM 70014,,50 µg/mL
CCCCCCC(O)C12C[C@@H]3[C@H](C)CC[C@H]3C3(C=O)CC1C=C(C(C)C)[C@@]23C(=O)O,MIC,,,0.25 µg/mL
COc1cc(C2CC(c3ccc4c(c3)OCO4)=NN2C(C)=O)cc(OC)c1OC,MIC,DSM 70014,,25 µg/mL
C[C@@H](c1ncncc1F)[C@](O)(Cn1cncn1)c1ccc(F)cc1F,MIC80,572-27,,0.03 µg/mL
COc1cccc(-c2nc3ncccn3c2N=O)c1,MIC,,,8 µg/mL
Cc1ccc(SC2=C(Sc3ccc(C)cc3)C(=O)c3ncccc3C2=O)cc1,MIC,ATCC 10231,,6.3 µg/mL
O=Nc1c(-c2ccccc2)nc2ncccn12,MIC,,,14 µg/mL
CC(N1CCCCC1)C(O)(Cn1cncn1)c1ccc(F)cc1F,MIC,KC-03,,0.05 µg/mL
CCOc1cc2c(cc1F)n([O-])c(C)c(Cl)[n+]2=O,MIC,Clinical isolate 16,,62.5 µg/mL
Cc1cc(Sc2ccccc2)nc2c1C(=O)C(Sc1ccc(Sc3ccccc3)cc1)=C(Sc1ccc(Sc3ccccc3)cc1)C2=O,MIC,ATCC 10231,,3.2 µg/mL
COc1ccc(C2=CC(c3cc(OC)c(OC)c(OC)c3)NC(=S)N2C)cc1OC,MBC,DSM 70014,,50 µg/mL
CC(=O)N1CCN(c2ccc(OC[C@H]3CO[C@](Cn4ccnc4)(c4ccc(Cl)cc4Cl)O3)cc2)CC1,MIC90,126 strains,,8 µg/mL
O=Nc1c(-c2cccc(Br)c2)nc2ncccn12,MIC,,,5 µg/mL
c1ccc(CO/N=C2\c3ccccc3OCC2n2cnnc2)cc1,MFC,ATCC 10231,,>64 µg/mL
C[C@@H](SC1COC(/C=C/C=C/c2ccc(C#N)cc2F)OC1)[C@](O)(Cn1cncn1)c1ccc(F)cc1F,MIC,CAL-0014,,0.06 µg/mL

Repeating the first 8 entries:

SMILES	read-out	strain	method	result
COc1cc(C(=O)Nc2ccccc2Cn2ccnc2)cc(OC)c1OC	Mean MIC	27 strains		71.9 µg/mL
CCOc1ccc2nc3cc(N=C4NC(=O)/C(=C\C=C\c5ccc([N+](=O)[O-])o5)S4)ccc3c(N)c2c1	MIC	ATCC 60193	broth dilution	500 µg/mL
COc1ccc(-c2cc(-c3cc(OC)c(OC)c(OC)c3)nc(NN)n2)cc1OC	MIC	DSM 70014		50 µg/mL
CN1C(=O)CSc2cc(C(O)Cn3cncn3)ccc21	MIC	CA6		>250 µg/mL
O=C(Nc1ccc(Cn2ccnc2)cc1)c1ccc(Cl)cc1[N+](=O)[O-]	Mean MIC	27 strains		158 µg/mL
O=C1C(=O)c2ccccc2C(O)=C1Nc1cccc(C(=O)O)c1	MIC			100 µg/mL
Clc1ccc(CO/N=C2\c3ccccc3OCC2n2cncn2)c(Cl)c1	MIC	ATCC 10231		64 µg/mL
C[C@H]1[C@H](O)[C@@H](C)/C=C/C=C/C=C/C=C/C=C/C=C/C=C/[C@H](O[C@@H]2O[C@H](C)[C@@H](O)[C@H](N)[C@@H]2O)C[C@@H]2O[C@](O)(C[C@@H](O)C[C@@H](O)CC[C@H](O)[C@@H](O)C[C@@H](O)CC(=O)O[C@H]1C)C[C@H](O)[C@H]2C(=O)O	MIC	n. 1s	broth dilution	2 µM